## Primary screen of a compound library

From ChEMBL document CHEMBL3988442, “University of Dundee, Small-Polar-MMV Screening Library” (2021).

Mtb glucose medium: 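Growth of Mycobacterium tuberculosis over 3 days (7H9 medium with glucose and tyloxapol); the read-out is not stated. Tested at 500 µM. Direction is inferred from retests: higher values go with more growth inhibition. Of about 18,000 compounds tested this way, about 1,400 (7.9%) reached 50% or more in at least one test.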
Mtb cholesterol medium: 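Growth of Mycobacterium tuberculosis over 4 days (cholesterol / DPPC medium with tyloxapol); the read-out is not stated. Concentration: 500 µM. Direction is inferred from retests: higher values go with more growth inhibition. About 18,000 compounds were tested under these conditions; 5% (about 900) showed 50% or more at least once.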

Each number is a percent effect as filed. The record does not define 0% and 100%; most values in the screen are far below 50% and negative numbers occur (in some assays of this library far below -100). Many other results are left out here, so strong results are more common than in the screen. A dash means the value is not listed here; it may have been measured.

compound	Mtb glucose medium	Mtb cholesterol medium
CCOC(=O)N1CCN(S(=O)(=O)c2cccs2)CC1	-	-9.057
COc1ccc(CN(C)C(=O)N2CCOCC2)cc1F	35.59	37.73
Nc1nc(C2CC(N)C2)cc(N2CCC(F)CC2)n1 (centres unmarked)	4.693	-
CC(=O)NCCNc1c(C)c(C)nc2ccccc12	-	-30.09
CC(C)c1cc(C(=O)N[C@@H]2CCOC[C@H]2O)no1	-	15.76
CN(CCCN)c1ccccc1F	91.06	86.55
O=C(NC1=NCCS1)c1sccc1C1CC1	64.17	70.22
Cc1ccoc1C(=O)N(C)Cc1snnc1C	30.33	-
CCCNCCNS(=O)(=O)CCc1cccs1	10.6	-
CCC[C@H](N)C(=O)NCCc1nc(COC)no1	-	-7.388
COc1cccc(CN(C)C(=O)c2cscn2)n1	24.58	-
N#CCc1cc(Cl)ccn1	-11.35	-7.24
Cc1cnn(CCNc2cc(C)nc(N)n2)c1	5.357	-
COCC(C)NC(=O)c1cccc(NS(C)(=O)=O)c1 (centres unmarked)	1.675	-
CN(C)CCNC(=O)[C@@H](N)Cc1ccccc1	23.15	-
O=C(CSc1ncccc1Br)N1CCCC1	78.55	73.33
CN(Cc1ccnn1C)S(=O)(=O)c1cccs1	32.56	30.3
O=C(Nc1ccccc1N1CCCC1=O)C1CCC1	7.971	-
CC1(C)CN(c2cncc(C(N)=O)n2)C[C@]1(C)O	-1.252	-
Cc1ccc(C(=O)N(C)C(C)CN)cc1C (centres unmarked)	10.24	-
COc1ccc(C(C)=O)cc1CC(=O)Nc1nncs1	1.189	-
NCc1cc(C(N)=O)co1	-3.84	-
O=C(c1cccc(-n2cccn2)n1)N1CCCC1	61.63	59.17
CN1C(=O)Cc2cc(NC(=O)c3cccn3C)ccc21	2.338	-
COc1ccc(CNC(=O)CCC2CCCO2)cn1 (centres unmarked)	52.84	-
CCCc1ccc(C(=O)N2CCCN(C)CC2)cc1	76.2	57.52
CNC(=O)c1ccc(NS(=O)(=O)c2ccc(C)s2)cc1	42.3	-
O=C(Nc1ccc(F)c(Cl)c1)N1CCC(O)C1 (centres unmarked)	72.08	64.62
Cc1c(C(=O)NC2CCN(S(C)(=O)=O)CC2)cnn1C	-	-5.288
COC[C@@H]1CCCN1C(=O)Nc1ccc(C(C)=O)cc1	31.3	-
CC(C)OCCS(=O)(=O)N(C)Cc1ccco1	67.17	72.25
CCc1ccccc1NC(=O)CSCC(N)=O	17.07	-
COc1cc(CNn2cnnc2)ccc1OCC(N)=O	8.022	-
CCc1nc(CN(C)CCC(C)O)no1 (centres unmarked)	5.897	-
O=C(COC(=O)c1cccs1)c1ccc[nH]1	78.86	109
CCCN(CC1CC1)S(=O)(=O)N1CC[C@@H](O)C1	31.76	-
CCn1cnnc1C(C)NC(=O)c1cc(CO)ccn1 (centres unmarked)	-	-0.8517
COCC(NC(=O)c1ccsc1)C(N)=O (centres unmarked)	6.257	-
c1cnc(C2CCCN2)nc1 (centres unmarked)	-1.501	-
CC(=O)NCc1ccc(C(=O)CSc2nccn2C)s1	-6.631	-
COc1ccccc1OCCN(C)CC(N)=O	16.94	-
CN(C)S(=O)(=O)NCCC(C)(C)C(F)(F)F	16.35	-
CCCn1cc(C(=O)NCC(F)(F)F)c(C)n1	11.52	-
Cn1nc(C(N)=O)c2ccccc21	8.42	-
CCC(CO)NC(=O)c1ccc(F)cc1C(F)(F)F (centres unmarked)	-	-0.6914
CN(C)CC1CCCN1C(=O)NC1CC1 (centres unmarked)	21.45	-
CC1CCCN(CCC(=O)Nc2sccc2C(N)=O)C1 (centres unmarked)	15	-
COc1ccc(CCN)c(OC)c1OC	88.92	92.22
COc1ncccc1-c1cccc(C#N)n1	2.169	-12.06
O=C(CNCC1CC1)Nc1ccc(F)cc1	60.19	34.32
NCC1CN(Cc2c(Cl)cncc2Cl)CCO1 (centres unmarked)	-	50.48
COc1c(CNCCS(C)(=O)=O)c(C(C)C)nn1C	11.16	56.89
NCCOc1ccc(OCCN)cc1	12.07	-
CNC(=O)C1CCN(C(=O)CCc2cccs2)CC1	51.98	35.15
C=C(Br)CNC(=O)NCC(C)(O)c1ccsc1 (centres unmarked)	-	15.35
CN(C)c1ccc(Br)c(S(=O)(=O)NC2CCNC2)c1 (centres unmarked)	69.33	-
COc1ccc(-c2ccc(CNS(N)(=O)=O)s2)cc1	-	2.073
CCN1CCN(CC(O)COc2ccccc2)CC1 (centres unmarked)	0.5184	-
CC1CN=C(N2CCN(CCc3ccccn3)CC2)S1 (centres unmarked)	18	-
CC1(C)CN(C(=O)c2cccn2C2CC2)C[C@]1(C)O	10.06	-

Some entries from above, unchanged:

{"compound": "O=C(c1cccc(-n2cccn2)n1)N1CCCC1", "Mtb glucose medium": 61.63, "Mtb cholesterol medium": 59.17}
{"compound": "CCCNCCNS(=O)(=O)CCc1cccs1", "Mtb glucose medium": 10.6}
{"compound": "O=C(Nc1ccc(F)c(Cl)c1)N1CCC(O)C1", "stereo": "centres unmarked", "Mtb glucose medium": 72.08, "Mtb cholesterol medium": 64.62}
{"compound": "CN(C)c1ccc(Br)c(S(=O)(=O)NC2CCNC2)c1", "stereo": "centres unmarked", "Mtb glucose medium": 69.33}